Anti-infective test results gathered from many reports (values: NIAID ChemDB through PubChem).

Common to all: whole-cell or culture tests; organism: HIV-1; read by: MTT / p24; endpoint: EC50

Rows are shuffled and stem from different studies.

structure	strain or isolate	cell line	result
COC(=O)[C@H](C)NP(=O)(OC[C@H]1O[C@@H](n2cc(C)c(=O)[nH]c2=O)C[C@@H]1N=[N+]=[N-])Oc1ccccc1	IIIB	C8166	0.08 µM
CCC(Cc1ccccc1)c1cc(O)c(C(c2cccc(NC(=O)[C@H](Cc3cnc[nH]3)NC(=O)OC(C)(C)C)c2)C2CC2)c(=O)o1	IIIB	MT-4	>3 µM
Cc1cn([C@H]2C[C@H](N=[N+]=[N-])[C@@H](CO)O2)c(=O)[nH]c1=O	112-2	MT-2	0.036 µg/mL
Cc1cn([C@H]2C[C@H](N=[N+]=[N-])[C@@H](COP(=O)(OCC(Cl)(Cl)Cl)Oc3ccccc3)O2)c(=O)[nH]c1=O	IIIB	C8166	0.2 µM
CCCCCCCCCCCCCCCC(=O)Nc1ccn([C@H]2C[C@H](OP(=O)(O)OC[C@H]3O[C@@H](n4cc(C)c(=O)[nH]c4=O)C[C@@H]3N=[N+]=[N-])[C@@H](CO)O2)c(=O)n1	IIIB	H9	0.05 µM
CC(C)[C@H](NC(=O)OCc1ccccc1)C(=O)N[C@@H](Cc1ccccc1)[C@@H](O)[C@@H](NCc1ccc(Cl)cc1)C(=O)N[C@H](C(=O)NCc1ccccc1)C(C)C	IIIB	MT-4	0.109 µM
CC(C)(C)NC(=O)[C@@H]1C[C@@H]2CCCC[C@@H]2CN1CC(O)[C@H](Cc1ccccc1)NC(=O)[C@H](CC(N)=O)NC(=O)c1ccc2ccccc2n1.CS(=O)(=O)O	NL4-3	MT-4	0.0028 µM
COc1ccc(CN[C@@H](C(=O)N[C@H](C(=O)NCc2nc3ccccc3[nH]2)C(C)C)[C@H](O)[C@H](Cc2ccccc2)NC(=O)[C@@H](NC(=O)[C@@](C)(O)c2ccccc2)C(C)(C)C)cc1	IIIB	HuT-78 + HUT 78	0.0268 µM
Cc1cn([C@H]2C[C@H](N=[N+]=[N-])[C@@H](COP(=O)(Oc3ccc([N+](=O)[O-])cc3)Oc3ccc([N+](=O)[O-])cc3)O2)c(=O)[nH]c1=O	IIIB	C8166	0.0032 µM
COc1ccc(CN[C@@H](C(=O)N[C@H](C(=O)NCc2nc3ccccc3[nH]2)C(C)C)[C@H](O)[C@H](Cc2ccccc2)NC(=O)[C@@H](NC(=O)OCc2ccccc2)C(C)(C)C)cc1	IIIB	HuT-78 + HUT 78	0.0059 µM
CCC(Cc1ccccc1)c1cc(O)c(C(c2cccc(NC(=O)[C@@H](C)NC(=O)OC(C)(C)C)c2)C2CC2)c(=O)o1	IIIB	MT-4	>3 µM
CC(C)CN(C[C@@H](O)[C@H](Cc1ccccc1)NC(=O)O[C@H]1CCOC1)S(=O)(=O)c1ccc(N)cc1	NL4-3	MT-4	0.0283 µM
CC(C)[C@H](NC(=O)OCc1ccccc1)C(=O)N[C@@H](Cc1ccccc1)[C@@H](O)[C@@H](NCc1ccc(Br)cc1)C(=O)N[C@H](C(=O)NCc1ccccc1)C(C)C	IIIB	MT-4	0.147 µM
Cc1cn([C@H]2C[C@H](N=[N+]=[N-])[C@@H](COP(=O)(Oc3ccccc3)Oc3ccccc3)O2)c(=O)[nH]c1=O	IIIB	C8166	0.3 µM
CSc1c(C)c(SC)n2ccncc12	IIIB	CEM	~25 µM
CCC[C@]1(CCc2ccccc2)CC(O)=C([C@@H](CC)c2cccc(NS(=O)(=O)c3ccc(C(F)(F)F)cn3)c2)C(=O)O1	NL4-3	MT-4	0.0254 µM

The last 2 rows once more:

CSc1c(C)c(SC)n2ccncc12 ; strain or isolate: IIIB ; cell line: CEM ; result: ~25 µM
CCC[C@]1(CCc2ccccc2)CC(O)=C([C@@H](CC)c2cccc(NS(=O)(=O)c3ccc(C(F)(F)F)cn3)c2)C(=O)O1 ; strain or isolate: NL4-3 ; cell line: MT-4 ; result: 0.0254 µM

ECn is the concentration giving n% inhibition of infection, replication or growth.